Results of unrelated studies side by side (data: NIAID ChemDB).

Common to all: growth or infection tests; species: HIV-1; read by: p24; read-out: EC50

a–b is a range or a potency band. Blank or dashed fields: not listed here. ECn: concentration that inhibits the pathogen or its effect by n%. Rows are shuffled and stem from different studies.

CC(C)[C@H](NC(=O)[C@H](Cc1ccccc1)NS(C)(=O)=O)C(=O)N[C@@H](Cc1ccccc1)[C@@H](O)[C@H](O)[C@H](Cc1ccccc1)NC(=O)[C@@H](NC(=O)[C@H](Cc1ccccc1)NS(C)(=O)=O)C(C)C ; strain: D34 ; cell line: PBLC ; value: 0.5 µM
CC(C)CN(C[C@@H](O)[C@H](Cc1ccccc1)NC(=O)O[C@H]1CCOC1)S(=O)(=O)c1ccc(N)cc1 ; strain: IIIB ; cell line: H9 ; value: 0.246 µM
CC(C)[C@H](NC(=O)[C@@H](N)Cc1ccccc1)C(=O)N[C@@H](Cc1ccccc1)[C@@H](O)[C@H](O)[C@H](Cc1ccccc1)NC(=O)[C@@H](NC(=O)[C@@H](N)Cc1ccccc1)C(C)C ; strain: D34 ; cell line: PBLC ; value: >25 µM
Cc1ccsc1C(CC(=O)c1ccncc1)CC(=O)c1ccncc1 ; strain: IIIB ; cell line: H9 ; value: 48 µM
Cc1cn([C@H]2C=C[C@@H](COC(=O)CCCCCCCCCCCN=[N+]=[N-])O2)c(=O)[nH]c1=O ; cell line: MT-4 ; value: 0.06 µM
Cc1cn([C@H]2C[C@H](N=[N+]=[N-])[C@@H](CO)O2)c(=O)[nH]c1=O ; strain: RF ; cell line: C8166 ; value: 0.00648 µg/mL
CCN1c2ncc(CCOc3cccc4c3CNC(=O)N4CC(=O)O)cc2C(=O)N(C)c2cccnc21 ; cell line: C8166 ; changes: RT-K103N Y181C ; value: >0.05 µM
Nc1ccn([C@H]2CS[C@@H](CO)O2)c(=O)n1 ; cell line: H9 ; value: 0.6 µM
O=C(O)c1cccc(-c2ccc(/C=C3\SC(=S)N(Cc4ccco4)C3=O)o2)c1 ; strain: IIIB ; cell line: MT-2 ; value: 26.68 µM
CC(C)[C@H](NC(=O)[C@@H](O)Cc1ccccc1)C(=O)N[C@@H](Cc1ccccc1)[C@@H](O)[C@H](O)[C@H](Cc1ccccc1)NC(=O)[C@@H](NC(=O)[C@@H](O)Cc1ccccc1)C(C)C ; strain: D34 ; cell line: PBLC ; value: 0.1 µM
CCN1c2ncc(CCOc3cccc4c3CNC(=O)N4)cc2C(=O)N(C)c2cccnc21 ; cell line: C8166 ; changes: RT-K103N Y181C ; value: <0.01 µM
COc1ccc(C[C@H](NC(=O)[C@@H](NC(=O)[C@H](Cc2cccc3ccccc23)CS(=O)(=O)C(C)(C)C)C(C)C)[C@@H](O)[C@H](O)[C@H](Cc2ccc(OC)cc2OC)NC(=O)[C@@H](NC(=O)[C@H](Cc2cccc3ccccc23)CS(=O)(=O)C(C)(C)C)C(C)C)c(OC)c1 ; strain: D34 ; cell line: PBLC ; value: 0.175 µM
Cc1cn([C@H]2C=C[C@@H](CO)O2)c(=O)[nH]c1=O ; cell line: MT-4 ; value: 0.15 µM
CCN1c2ncc(CCOc3cccc4c3CNC(=O)N4C)cc2C(=O)N(C)c2cccnc21 ; strain: IIIB ; cell line: C8166 ; value: <0.01 µM
C=C1CN(S(=O)(=O)c2ccc(C)cc2)CCCN(Cc2ccccc2)CCCN(S(=O)(=O)c2ccc(C)cc2)C1 ; strain: BaL ; cell line: PBMC ; value: 2.33 µM
CCN1c2ncc(CCOc3cccc4c3CNC(=O)N4)cc2C(=O)Nc2c(C)ccnc21 ; strain: IIIB ; cell line: C8166 ; value: <0.01 µM
CCSCCCCCCCCCCCC(=O)OC[C@@H]1C=C[C@H](n2cc(C)c(=O)[nH]c2=O)O1 ; cell line: MT-4 ; value: 0.09 µM
C=C(C)OC(=O)N1c2cc(Cl)ccc2NC(=S)C1(C)C ; strain: MN: RS(HBY 097) ; cell line: H9 ; value: >50 µM
CC(C)[C@H](NC(=O)[C@H](Cc1cccc2ccccc12)CS(=O)(=O)C(C)(C)C)C(=O)N[C@@H](Cc1ccc(O)cc1)[C@@H](O)[C@H](O)[C@H](Cc1ccc(O)cc1)NC(=O)[C@@H](NC(=O)[C@H](Cc1cccc2ccccc12)CS(=O)(=O)C(C)(C)C)C(C)C ; strain: D34 ; cell line: PBLC ; value: 0.3 µM
Cc1c(C(=O)O)cccc1-c1ccc(/C=C2\SC(=S)N(c3cccc(C(F)(F)F)c3)C2=O)o1 ; strain: IIIB ; cell line: MT-2 ; value: 1.265 µM
O=C(/C=C/c1ccc(O)c2c1[C@H](C(=O)O[C@H](Cc1ccc(O)c(O)c1)C(=O)O)[C@@H](c1ccc(O)c(O)c1)O2)O[C@H](Cc1ccc(O)c(O)c1)C(=O)O ; strain: MN ; cell line: H9 ; value: 6.9 µM
CC(C)[C@H](NC(=O)[C@H](Cc1ccccc1)CS(=O)(=O)C(C)(C)C)C(=O)N[C@@H](Cc1ccccc1)[C@@H](O)[C@H](O)[C@H](Cc1ccccc1)NC(=O)[C@@H](NC(=O)[C@H](Cc1ccccc1)CS(=O)(=O)C(C)(C)C)C(C)C ; strain: D34 ; cell line: PBLC ; value: 0.023 µM
COc1ccc(N2C(=O)/C(=C/c3ccc(-c4ccc(Cl)c(C(=O)O)c4)o3)SC2=S)cc1 ; strain: IIIB ; cell line: MT-2 ; value: 3.047 µM
CCN1c2ncc(CCOc3cccc4c3CNC4=O)cc2C(=O)N(C)c2cccnc21 ; cell line: C8166 ; changes: RT-K103N Y181C ; value: <0.01 µM
COc1ccc2c(c1)N(C(=O)OC(C)C)[C@@H](CSC)C(=S)N2 ; strain: MN ; cell line: H9 ; value: 0.006 µM
O=C(O)c1cc(-c2ccc(/C=C3\SC(=S)N(c4cccc([N+](=O)[O-])c4)C3=O)o2)ccc1Cl ; strain: IIIB ; cell line: MT-2 ; value: 0.943 µM
Cc1cc(S(=O)(=O)Nc2nnc3c4ccccc4cnn23)c(S)cc1Cl ; strain: ddI-resistant ; cell line: CEM ; value: 8.2 µM
C/C=C/CSc1cc(NC(=S)c2ccsc2C)ccc1Cl ; strain: NL4-3 ; cell line: CEM + CEM-SS ; changes: RT-A98G ; value: 0.7 µM
CCc1cn([C@@H]2C[C@H](F)[C@@H](CO)O2)c(=O)[nH]c1=O ; strain: IIIB ; cell line: H9 ; value: 0.1 µM
CC(C)[C@H](NC(=O)[C@H](Cc1cccc2ccccc12)CS(=O)(=O)C(C)(C)C)C(=O)N[C@@H](Cc1ccccc1)[C@@H](O)[C@H](O)[C@H](Cc1ccccc1)NC(=O)[C@@H](NC(=O)[C@H](Cc1cccc2ccccc12)CS(=O)(=O)C(C)(C)C)C(C)C ; strain: D34 ; cell line: PBLC ; value: 0.003 µM
CCN1c2ncc(CCOc3cccc4c3CN(C)C(=O)N4C)cc2C(=O)N(C)c2cccnc21 ; cell line: C8166 ; changes: RT-K103N Y181C ; value: 0.01–0.05 µM

For reference, 2 entries again:

compound | strain | cell line | changes | value
CC(C)[C@H](NC(=O)[C@H](Cc1ccccc1)CS(=O)(=O)C(C)(C)C)C(=O)N[C@@H](Cc1ccccc1)[C@@H](O)[C@H](O)[C@H](Cc1ccccc1)NC(=O)[C@@H](NC(=O)[C@H](Cc1ccccc1)CS(=O)(=O)C(C)(C)C)C(C)C | D34 | PBLC | - | 0.023 µM
Nc1ccn([C@H]2CS[C@@H](CO)O2)c(=O)n1 | - | H9 | - | 0.6 µM